Laboratory results as given in the supplement of paper PMC9931576.
Human monoclonal antibodies against the spike receptor-binding domain (heavy:light variable regions). IC50 against pseudoviruses bearing the spike of naturally observed variants; lower = stronger; >10 µg/ml means not reached at the top dose. No active / inactive call. The stated detection limit is 0.0005 µg/ml; values near or below 0.001 µg/ml lie at the floor of the assay.

B1: BD56-1857 (protein)
chain 1: QITLKESGPTLVKPTQTLTLTCTFSGFSLSTGGVGVGWIRKPPGKALEWLALIYWDDDKRYNPSLTSRVTVTKDTSKSQVVLTVTNIDPVDTATYYCAHYSLERLFDFWGQGTLVTVSS
chain 2: QSALTQPASVSGSPGQSITISCTGASSAVGTYNYVSWYQHHPGKAPKLMIYAVNNRPSGISNRFSGSKSGNTASLTISGLQAEDEADYYCSSYTDSSVVFGGGTKLTVL
B2: BD56-1859 (protein)
chain 1: QVQLQESGPGLVKPSGTLSLTCAVSGGSISIINWWSWVRQPPGKGLEWIGEIHQSGNTNYSPSLKSRVTISVDKSKNQFSLKLSSVTAADTAVYYCARDRGGVGDAFDIWGQGTMVTVSS
chain 2: QSALTQPASVSGSPGQSITISCTGTGSDVGSYNYVSWYQQHPGKAPKLIIYDVSDRPSGVSHRFSGSKSGNTASLTISGLQAEDEADYYCNSYASGSTRVFGTGTKVTVL
B3: BD56-1860 (protein)
chain 1: QVQLQESGPGLVKPSQTLSLTCTVSGASISSGSYYWSWIRQPAGKGLEWIGRISTSGSTNSTSSLKSRVTISVDKSKNQFSLKLNSVTAADTAVYYCARGVEPLLGWFDPWGQGTLVTVSS
chain 2: SYVLTQPPSVAEAPGKTARVTCGGNNIGSKSVHWYQQKPGQAPVMLIYYDSERPSGIPERFSGSNSGNTATLTISRVEAGDEADYYCQVWDTSGDHPVFGGGTKLSVL
B4: BD56-1865 (protein)
chain 1: EVQLVESGGGLVQPGRSLRLSCAASGFTFGDYAMHWVRQAAGKGLEWVSGLTYNGGVMDYAASVKGRFFISRDNAKNSLYLQMNSLRAEDTAFYFCAKDMGTYYDTLTGFYDDHKFFHYWGQGTLVTVSS
chain 2: DIVMTQSPDSLAVSLGERATINCKSSQSVLYSSNNKNNLAWYQQKPGQPPKLLIYWASTRESGVPDRFSGSGSGTDFTLTISSLQAEDVAVYYCQQYYSLPLTFGPGTKVDIK
B5: BD56-1869 (protein)
chain 1: QVQLVQSGTEVKKPGSSVKVSCKASGGALNNHAISWVRQAPGQGLEWMGRIIPILSIPNYAQKFQGRVTITADKTTSTAYMELSSLRSDDTAVYYCARESYSYSSGVPGTAGSWFDPWGQGSLVIVSS
chain 2: DIQMTQSPPSLSASVGDRVTITCRASQSISTYLNWYQHKPGKPPKLLISAASSLQSGVPSRFSGSGSGTDFTLTISSLQLEDFATYYCQQSYNTLWTFGQGTKVEIK
B6: BD56-1870 (protein)
chain 1: EVQLVESGGGVVQPGRSLRLACGASDFTFSDSDMHWIRQPPGKGLDWVAVISSDGSGKFYADSVKGRFTISRDNSKNTLFLQMNSLRAEDTAVYYCAKQSNYDILTGGPFDSWGQGTLVTVSS
chain 2: DIQMTQSPSSLSASVGDRVTISCRASLGIRSSIAWYQQKPGKAPKLLLYAASRLETGVPSRFSGSGSGTDYTLTISSLQPEDFATYYCQQYYSAPPYTFGQGTKLEIK
B7: BD56-1873 (protein)
chain 1: QVQLVQSGAEVKKPGSSVKVSCKASGGSFSRHSISWVRQAPGQGLEWMGRTIPIVEIVNYAQKFQGRFTITAEKSTSTVYMELNSLRVEDTAVYYCARETEATEDFGNPNWFDPWGQGTLVTVSS
chain 2: DIVMTQSPDSLAVSLGERATINCKSSQSVLYTSNSKNYLAWYQQKPGQPPKLLIYWASTRESGVPERFGGSGSGTDFTLTISSLQAEDVAVYYCLQYYGNPRTFGQGTKVEIK
B8: BD56-1878 (protein)
chain 1: QVQLVQSGAEVKKPGSSVKVSCKASGGTFSSYAITWVRQAPGQGLEWMGRIFPILNTANYALKFQGRVTITADKSTSTAYMELPSLRSEDTAVYYCARDGNNYDSSGLPAEYFQLWGQGTLVTVSS
chain 2: QSVLTQPPSVSGAPGQRVTISCTGSNSNIGAGYDVHWYQQLPGTAPKLLIYGNTNRPSGVPDRFSGSKSGTSASLAITGLQAEDEADYYCQSYDSSLSDSVFGGGTKLTVL
B9: BD56-1879 (protein)
chain 1: QVQLVQSGAEVKKPGSSVKVSCKASGGSVRTDAIIWVRQAPGQGLEWMGRIIPLPGVTNYAQKIQGRVTITADTSTSTTYMELNSLRFDDSAVYYCARGASGKDAMDVWGQGTTVTVSS
chain 2: DIQMTQSPSTLSASVGDRVTITCRASQTINSWLAWYQQKPGKAPKLLIYDASTLESGVPSRFSGSGSGTEFTLTISSLQPDDFATYYCQQYHSYSPVTFGQGTKVEIK
B10: BD56-1885 (protein)
chain 1: QITLKESGPTLVKPTQTLTVTCTFSGFSLSSSGVGVGWIRQPPGKALEWLGIIYWDGDQRYSPSLKTRLTITTDTSKNQVILTMTNMDPVDTATYYCAHLVGGLWGFDPWGQGTLVTVSS
chain 2: QSVLTQPPSASGTPGQRVTISCSGSSSNIGSNYVCWYQQFPGTAPKLLMYNNNQRPSGVPDRFSGSKSGTSASLAISGLRSEDEADYYCAAWDDSLSDWLFGGGTKLTVL
B11: BD56-1888 (protein)
chain 1: QVQLQESGPGLVKPSETLSLTCTVSGGSVSSGNSYWHWIRQSPGKGLEWVGYIYYSGGANYNPSLKSRVTISIDTSKNQFSLKVISVTTADTAVYYCAREPIVVPAALPPYGLDVWGQGTTVTVSS
chain 2: EIVLTQSPATLSLSPGERATLSCRASQSFNIYLAWYQQKPGQAPRLLIYDSSNRATGIPARFSGSGSGTDFTLTISSLEPEDFAVYYCLQRSNWPPLTFGGGTKVEIK
B12: BD56-1889 (protein)
chain 1: QVQLVESGGGVVQPGRSLRLSCAASGFSFSTYGMHWVRQAPGKGLEWVALIWNDGSNKYHADSVKGRFTISRDNSKNTLYMQMNSLRAEDTAMYYCARDNGPYGDYGIDSWGQGTLVTVSS
chain 2: DIVMIQTPLSLAVTPGQPASISCKSSQSLLQINGKTYLFWYLQRPGQSPHLLIYEGSHRFSGVPDRFSGSGSGTDFTLKISRVEAEDVGVYYCMQSKHLPWTFGQGTKVEIK

Legend:
Experiment in all cases: pseudovirus neutralization IC50; higher = weaker neutralization
[1] = molecular target: SARS-CoV-2 Omicron BA.1 spike pseudovirus
Experimental: (§1)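 Single-round VSV luciferase pseudovirus mixed with antibody dilutions for 1 h and put on Huh-7 cells for about a day; IC50 from the dose curve.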

[2] = molecular target: SARS-CoV-2 Omicron BA.2 spike pseudovirus
Experimental: as §1

[3] = molecular target: SARS-CoV-2 Omicron BA.2.75 spike pseudovirus
Experimental: as §1

[4] = molecular target: SARS-CoV-2 Omicron BA.5 spike pseudovirus
Experimental: as §1

[5] = molecular target: SARS-CoV-2 Omicron BQ.1.1 spike pseudovirus
Experimental: as §1

[6] = molecular target: SARS-CoV-2 Omicron XBB spike pseudovirus
Experimental: as §1

[7] = molecular target: SARS-CoV-2 early D614G spike pseudovirus
Experimental: as §1

Binder	pseudovirus neutralization IC50 [1] [µg/mL]	pseudovirus neutralization IC50 [2] [µg/mL]	pseudovirus neutralization IC50 [3] [µg/mL]	pseudovirus neutralization IC50 [4] [µg/mL]	pseudovirus neutralization IC50 [5] [µg/mL]	pseudovirus neutralization IC50 [6] [µg/mL]	pseudovirus neutralization IC50 [7] [µg/mL]
B1	0.571	0.00328	0.131	0.00305	> 10	> 10	0.0102
B2	> 10	0.0442	> 10	0.018	> 10	> 10	0.00839
B3	9.86	> 10	3.62	> 10	> 10	> 10	0.354
B4	0.109	0.0805	0.0504	1.78	> 10	4.1	0.109
B5	0.00275	0.00597	0.337	> 10	> 10	> 10	0.00332
B6	> 10	> 10	> 10	> 10	> 10	> 10	0.423
B7	0.0214	0.00698	0.00593	> 10	> 10	> 10	0.00697
B8	0.0828	0.0744	0.16	> 10	> 10	> 10	0.24
B9	> 10	0.0246	> 10	4.97	> 10	> 10	0.0021
B10	0.195	0.000197	0.0161	0.00141	> 10	7.7	0.0113
B11	0.00187	0.000839	0.00083	3.48	> 10	0.454	0.00114
B12	> 10	> 10	> 10	> 10	> 10	> 10	> 10
